Compound potency records, mixed from different reports. Data source: NIAID ChemDB in PubChem.

Common to all: toxicity to cultured cells; measure: CC50

CCn is the concentration with n% toxicity to the cells. Lines come from different laboratories, so protocols vary. Blank or dashed fields: not listed here. a–b is a range or a potency band.

smiles	read by	cell line	value
C[C@H]1NCc2cc(-c3ccc4c(=O)c(C(=O)O)cn(C5CC5)c4c3OC(F)F)ccc21	-	CHL	>200 µg/mL
O=c1[nH]c(=O)n([C@H]2C[C@H](O)[C@@H](CO)O2)cc1/C=C/Br	-	HEL 299	>200 µM
CC(=O)O[C@@H](C/C=C(\C)C(=O)O)[C@@H](C)[C@H]1CC[C@@]2(C)C3=C(CC[C@]12C)[C@@]1(C)CCC(=O)C(C)(C)C1CC3	resazurin	NCI-H187	18.57 µg/mL
CC[C@@H](C)[C@@H]1NC(=O)[C@@H](CC(C)C)NC(=O)[C@H](CC(C)C)NC(=O)[C@H](Cc2c[nH]c3ccccc23)NC(=O)[C@@H](CCCN)NC(=O)[C@H](CO)NC1=O	luminescence	Hep2G	>100 µM
CCOC(=O)/C=C/[C@H](CCC(N)=O)NC(=O)[C@H](Cc1ccc(C)cc1)NC(=O)[C@@H](NC(=O)C1SCCS1)C(C)(C)C	-	H1-HELA	>100 µM
COc1ccc(C[C@H](NC(=O)[C@@H](NC(=O)[C@H](Cc2cccc3ccccc23)CS(=O)(=O)C(C)(C)C)C(C)C)[C@@H](O)[C@H](O)[C@H](Cc2ccc(OC)cc2OC)NC(=O)[C@@H](NC(=O)[C@H](Cc2cccc3ccccc23)CS(=O)(=O)C(C)(C)C)C(C)C)c(OC)c1	-	PBLC	>0.175 µM
CC(C)CC1C(=O)N[C@H](CC(C)C)C(=O)N(C)C(C(C)C)C(=O)N[C@@H](CC(N)=O)C(=O)N[C@H](CCCN)C(=O)N[C@@H](Cc2c[nH]c3ccccc23)C(=O)N1C	luminescence	Hep2G	>100 µM
CCC[C@H](NC(=O)[C@H](Cc1cccc2ccccc12)CS(=O)(=O)C(C)(C)C)C(=O)N[C@@H](Cc1ccccc1)[C@@H](O)[C@H](O)[C@H](Cc1ccccc1)NC(=O)[C@H](CCC)NC(=O)[C@H](Cc1cccc2ccccc12)CS(=O)(=O)C(C)(C)C	-	PBLC	>0.004 µM
C[C@H]([C@@H]1CC[C@@H](C)C(=O)O1)[C@H]1CC[C@@]2(C)C3=C(CC[C@]12C)[C@@]1(C)CC[C@@H](O)C(C)(C)C1CC3	resazurin	NCI-H187	>50 µg/mL
COc1ccc(CCNC(=O)CCCCC(C)=O)cc1OC	-	BJ	<7.5 µM
CC(C)CS[C@H]1C[C@@H](n2cnc3c(N)ncnc32)[C@H](O)[C@@H]1O	-	E6SM	≥400 µg/mL
COc1ccc(-c2cc(C(=O)O)c3ccccc3n2)cc1OC	-	BJ	>20 µM
C/C(=C\C[C@H](O)[C@@H](C)[C@H]1CC[C@@]2(C)C3=C(CC[C@]12C)[C@@]1(C)CCC(=O)C(C)(C)C1CC3)C(=O)O	resazurin	NCI-H187	48.35 µg/mL
CC1=CC(C(=O)N[C@H](C(=O)C[C@@H](Cc2ccc(F)cc2)C(=O)N[C@H](/C=C2\CCOC2=O)CCC(N)=O)C(C)C)NO1	-	H1-HELA	>100 µM
O=C(O)c1cc(-c2ccco2)nc2ccccc12	-	HEK 293	>20 µM
CC(C)[C@H](NC(=O)COc1cccc2ccccc12)C(=O)N[C@@H](Cc1ccccc1)[C@@H](O)[C@H](O)[C@H](Cc1ccccc1)NC(=O)[C@@H](NC(=O)COc1cccc2ccccc12)C(C)C	-	PBLC	>0.041 µM
O=C(O)c1cn(C2CC2)c2cc(N3CCNCC3)ccc2c1=O	-	CHL	123 µg/mL
CC(=O)OC(C(C)C(C)C(C)(C)O)C1OC12C(O)CC1C3CCC4CC(=O)CCC4C3CCC12CO	MTT	HT-29	>50 µg/mL
CCOC(=O)/C=C/[C@H](CCC(N)=O)NC(=O)[C@H](Cc1ccc(C)cc1)NC(=O)[C@@H](NC(=O)c1ccc[nH]1)C(C)(C)C	-	H1-HELA	>100 µM
C=CC[C@H](NC(C)=O)C(=O)N1CCC[C@@H]1c1ncc(-c2ccc(-c3ccccc3)cc2)[nH]1	-	PBM	>100 µM
CCOC(=O)/C=C/[C@H](C[C@@H]1CCNC1=O)NC(=O)[C@H](Cc1ccc(F)cc1)NC(=O)[C@@H](NC(=O)c1cc(C)on1)C(C)(C)C	-	H1-HELA	>10 µM
CC(C)[C@H](NC(=O)[C@@H](O)Cc1ccccc1)C(=O)N[C@@H](Cc1ccccc1)[C@@H](O)[C@H](O)[C@H](Cc1ccccc1)NC(=O)[C@@H](NC(=O)[C@@H](O)Cc1ccccc1)C(C)C	-	PBLC	>0.1 µM
CC(C)N(Cc1ccccc1OCC(=O)O)C(=O)c1ccc(-c2ccc3c(c2)OCO3)cc1	-	RAJI	>20 µM
Clc1cccc(-c2cc3c(-c4ccnc(NC5CCCC5)n4)ccc(NC4CCCC4)n3n2)c1	-	VERO 76	>40 µM
CCOC(=O)CCCCCOc1cccc(CN(C(=O)c2ccc(-c3ccc(Cl)c(Cl)c3)cc2)C(C)C)c1	-	BJ	>20 µM
COC1(OC)CCC2(C)C(CCC3C2CCC2(COC(C)=O)C3CC(O)C23OC3C(OC(C)=O)C(C)C(C)C(C)(C)O)C1	MTT	HT-29	>50 µg/mL
Fc1ccc(-c2cc3c(-c4ccnc(NC5CCCC5)n4)ccc(NC4CCCC4)n3n2)cc1	-	VERO 76	>160 µM
CC(=NNC(=O)c1snnc1C(F)(F)F)c1ccccn1	MTT	MDA-MB-231	2.74 µg/mL
CC(C)C[C@@H]1NC(=O)[C@H](Cc2c[nH]c3ccccc23)NC(=O)[C@@H](CCCN)NC(=O)C(CC(N)=O)N(C)C(=O)[C@H](C(C)C)NC(=O)[C@@H](CC(C)C)N(C)C1=O	luminescence	Hep2G	>100 µM
Nc1ncnc2c1ncn2[C@H]1C=C[C@](OCP(=O)(O)O)(C2CC2)C1	XTT / absorbance	T4	90 µM
COc1c(N2C[C@@H]3CCCN[C@@H]3C2)ccc2c(=O)c(C(=O)O)cn(C3CC3)c12	-	CHL	108 µg/mL
CC(C)[C@H](NC(=O)[C@H](Cc1ccccc1)CS(=O)(=O)C(C)(C)C)C(=O)N[C@@H](Cc1ccccc1)[C@@H](O)[C@H](O)[C@H](Cc1ccccc1)NC(=O)[C@@H](NC(=O)[C@H](Cc1ccccc1)CS(=O)(=O)C(C)(C)C)C(C)C	-	PBLC	>0.023 µM
CCOC(OCC)C1=NCCc2cc(OC)c(OC)cc21	-	HepG2	>20 µM
CC(C)[C@H](NC(=O)[C@H](Cc1cccc2ccccc12)CS(=O)(=O)C(C)(C)C)C(=O)N[C@@H](Cc1ccc(O)cc1)[C@@H](O)[C@H](O)[C@H](Cc1ccc(O)cc1)NC(=O)[C@@H](NC(=O)[C@H](Cc1cccc2ccccc12)CS(=O)(=O)C(C)(C)C)C(C)C	-	PBLC	>0.3 µM
N#Cc1cccc(-c2cc3c(-c4ccnc(NC5CCCC5)n4)ccc(NC4CCCC4)n3n2)c1	-	VERO 76	>20 µM
N#CC(N)=NCCCCCC[NH+]=C(N)NC(N)=NCCCCCCN=C(N)NC(N)=[NH+]CCCCCCN.[Cl-].[Cl-]	MTT	P4-CCR5	90 µg/mL
CCCCOc1ccc(-c2cc3c(-c4ccnc(NC5CCCC5)n4)ccc(NC4CCCC4)n3n2)cc1	-	VERO 76	>100 µM
CC(C)(C)OC(=O)NCC(OC(=O)C(O)CO)c1ccc2c(c1)OCO2	-	HEK 293	<7.5 µM
Nc1nccc2c1ncn2[C@@H]1C=C(CO)[C@@H](O)[C@H]1O	-	U1	10–25 µM
CCOC(=O)/C=C/[C@H](CCC(N)=O)NC(=O)[C@H](Cc1ccccc1)NC(=O)[C@H](CC(C)C)NC(=O)OCc1ccccc1	-	H1-HELA	>320 µM
Cc1cc(C=O)cc(C)c1Oc1cc(Nc2ccc(C#N)cc2)nc2ccccc12	MTT	MDA-MB-231	15.9 µM
CC(C)[C@H](NC(=O)[C@H](Cc1cccc2ccccc12)CS(=O)(=O)C(C)(C)C)C(=O)NCCCCNC(=O)[C@@H](NC(=O)[C@H](Cc1cccc2ccccc12)CS(=O)(=O)C(C)(C)C)C(C)C	-	PBLC	>3 µM
CCOC(=O)/C=C/[C@H](C[C@@H]1CCNC1=O)NC(=O)[C@H](Cc1ccc(F)cc1)OC(=O)[C@@H](NC(=O)c1cc(C)on1)C(C)C	-	H1-HELA	>10 µM
CC(C)C[C@@H]1NC(=O)[C@H](Cc2c[nH]c3ccccc23)NC(=O)[C@@H](CCCN)NC(=O)[C@H](CC(N)=O)NC(=O)[C@H](C(C)C)NC(=O)[C@@H](C)NC1=O	luminescence	Hep2G	>100 µM

The last 7 rows once more:

smiles | read by | cell line | value
CC(C)(C)OC(=O)NCC(OC(=O)C(O)CO)c1ccc2c(c1)OCO2 | - | HEK 293 | <7.5 µM
Nc1nccc2c1ncn2[C@@H]1C=C(CO)[C@@H](O)[C@H]1O | - | U1 | 10–25 µM
CCOC(=O)/C=C/[C@H](CCC(N)=O)NC(=O)[C@H](Cc1ccccc1)NC(=O)[C@H](CC(C)C)NC(=O)OCc1ccccc1 | - | H1-HELA | >320 µM
Cc1cc(C=O)cc(C)c1Oc1cc(Nc2ccc(C#N)cc2)nc2ccccc12 | MTT | MDA-MB-231 | 15.9 µM
CC(C)[C@H](NC(=O)[C@H](Cc1cccc2ccccc12)CS(=O)(=O)C(C)(C)C)C(=O)NCCCCNC(=O)[C@@H](NC(=O)[C@H](Cc1cccc2ccccc12)CS(=O)(=O)C(C)(C)C)C(C)C | - | PBLC | >3 µM
CCOC(=O)/C=C/[C@H](C[C@@H]1CCNC1=O)NC(=O)[C@H](Cc1ccc(F)cc1)OC(=O)[C@@H](NC(=O)c1cc(C)on1)C(C)C | - | H1-HELA | >10 µM
CC(C)C[C@@H]1NC(=O)[C@H](Cc2c[nH]c3ccccc23)NC(=O)[C@@H](CCCN)NC(=O)[C@H](CC(N)=O)NC(=O)[C@H](C(C)C)NC(=O)[C@@H](C)NC1=O | luminescence | Hep2G | >100 µM